Assay results: patent US11801255B2, “Lipid disulfide prodrugs and uses related thereto” (priority 2017, dated 2023)

Test system: HIV-1
Set-up: TI90, HIV-1: unit not given beside the values
Conditions: for TI90, HIV-1: at the EC90, data not shown; for therapeutic index (TI) at the EC50 / TI50, HIV-1, text: PBMCs
Protocol: Compounds synthesized were evaluated against HIV-infected PBMCs and antiviral activity was assessed by measuring reverse transcriptase in cell supernatants. Compounds 11a-e, 12a-e, and 13 were assayed against HBV and qPCR was used to quantify viral DNA following incubation in HepG2.2.15 cells after 6 days.

Compound | TI90, HIV-1 | therapeutic index (TI) at the EC50 / TI50, HIV-1, text
tenofovir disoproxil fumarate [TDF, reference compound] | 1,300 | –
CCCCCCCCCCCCCCCCSSCCOP(=O)(O)COC(C)Cn1cnc2c(N)ncnc21 (stereo not drawn) [Compound 11d, 2-(hexadecyldisulfanyl)ethyl hydrogen (((1-(6-amino-9H-purin-9-yl)propan-2-yl)oxy)methyl)phosphonate] | 11,000 | exceeds 20,000
CCCCCCCCCCCCCCSSCCOP(=O)(O)CO[C@H](C)Cn1cnc2c(N)ncnc21.N [Compound 11c] | 11,000 | ~30,000
CCCCCCCCCCSSCCOP(=O)(O)CO[C@H](C)Cn1cnc2c(N)ncnc21.N [Compound 11a] | – | 590
